Some entries repeat one wording, which the source may state once for all of them.
Each molecule was assayed on activated sludge (assay: Biodegradability test, amended SCAS method (302A Modified SCAS Test, OECD guideline)). Details: not given.

| Structure (SMILES) | biodegradability in 302A Modified SCAS Test |
| --- | --- |
| O=C(O)C[C@@H](C(=O)O)N(CC(=O)O)CC(=O)O [S-ASDA, (S)-aspartic acid-N,N-diacetic acid] | completely decomposed to inorganic materials |
| O=C(O)CN(CCS(=O)(=O)O)CC(=O)O [TUDA, taurine-N,N-diacetic acid] | completely decomposed to inorganic materials in a short time |

Same assay, conditions: amended SCAS method, activated sludge, supernatant liquid

| Structure (SMILES) | Retention rate by HPLC (%) | Retention rate by TOC (%) |
| --- | --- | --- |
| O=C([O-])C[C@@H](C(=O)[O-])N(CC(=O)[O-])CC(=O)[O-].[Na+].[Na+].[Na+].[Na+] | 0 | 0 |
| O=C([O-])CC[C@@H](C(=O)[O-])N(CC(=O)[O-])CC(=O)[O-].[Na+].[Na+].[Na+].[Na+] | 0 | 0 |
| O=C([O-])CN(CCS(=O)(=O)[O-])CC(=O)[O-].[Na+].[Na+].[Na+] | 0 | 0 |
| O=C([O-])CC(C(=O)[O-])N(CC(=O)[O-])CC(=O)[O-].[Na+].[Na+].[Na+].[Na+] (racemic) [Racemic aspartic acid-N,N-diacetic acid tetrasodium salt] | 65 | 50 |
| O=C([O-])CCC(C(=O)[O-])N(CC(=O)[O-])CC(=O)[O-].[Na+].[Na+].[Na+].[Na+] (racemic) [Racemic glutamic acid-N,N-diacetic acid tetrasodium salt] | 60 | 50 |

Each molecule was assayed on microorganisms living in environmental water such as rivers, lakes, and general sewage (assay: Decomposition by microorganisms living in environmental water). Details: without activated sludge treatment.

| Structure (SMILES) | decomposition by microorganisms living in environmental water |
| --- | --- |
| CN(CC(=O)O)CC(=O)O [MIDA, N-methyliminodiacetic acid] | readily decomposed by microorganisms living in environmental water |
| O=C(O)CN[C@@H](CC(=O)O)C(=O)O [S-ASMA, (S)-aspartic acid-N-monoacetic acid] | readily decomposed by microorganisms living in environmental water |
| O=C(O)CCN[C@@H](CC(=O)O)C(=O)O [S-ASMP, (S)-aspartic acid-N-monopropionic acid] | readily decomposed by microorganisms living in environmental water |
